# Potato spindle tuber viroid, loop 6: variant abundance in plants

From the data files of Wu et al. 2024, doi:10.1371/journal.ppat.1012142.

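A pool of all variants was put on leaves of three Nicotiana benthamiana plants. Progeny were sequenced from the inoculated region (day 5), the margin of the inoculated leaf (day 10) and systemic leaves (day 12).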

The pool varies loop 6 of the PSTVd intermediate strain in the pattern UNNNCGNNNG; wild type is UGACCGCGAG (upper and lower strand joined, each 5' to 3', the first 5 letters being the upper strand, closing pairs included).

Values are reads per thousand in the sample; higher means more abundant, 0 means not found.
Each site shows the three plants.
"Pool" is the share in the plasmid pool used as inoculum, on the same scale.
The inoculated region was read from the minus strand, the other sites from the plus strand.
IR is the inoculated region, LM the leaf margin, Sys the systemic leaves.

UCACCGAAAG (pool 0.222) read IR 0.643 / 0.719 / 0.350; LM 0.0828 / 0.177 / 0.0696; Sys 0 / 0 / 0.
UAGUCGGCCG (pool 0.157) read IR 0.139 / 0.0539 / 0.0369; LM 0.0276 / 0 / 0; Sys 0 / 0 / 0.
UUGGCGUUAG (pool 0.654) read IR 0.139 / 0.144 / 0.0922; LM 0 / 0 / 0; Sys 0 / 0 / 0.
UACCCGUGAG (pool 0.157) read IR 0.104 / 0.108 / 0.0738; LM 0 / 0 / 0.0232; Sys 0 / 0 / 0.
UGUACGAUGG (pool 0.314) read IR 0.0521 / 0.0359 / 0.0553; LM 0 / 0 / 0.0696; Sys 0 / 0 / 0.
UUUACGCGGG (pool 0.275) read IR 0.209 / 0.0898 / 0.129; LM 0.0276 / 0 / 0.0232; Sys 0 / 0 / 0.
UGCUCGCCGU (pool 0.0131) read IR 0 / 0 / 0; LM 0 / 0 / 0; Sys 0 / 0 / 0.
UAAUCUACUA (pool 0.0131) read IR 0 / 0 / 0; LM 0 / 0 / 0; Sys 0 / 0 / 0.
UGGGCGACGG (pool 0.222) read IR 0.0869 / 0.108 / 0.0738; LM 0 / 0 / 0; Sys 0 / 0 / 0.
UCGCCGGCAG (pool 0.183) read IR 0.0348 / 0.0359 / 0; LM 0 / 0 / 0; Sys 0 / 0 / 0.
UGCGCGAACG (pool 0.222) read IR 0.0174 / 0.126 / 0.0922; LM 0 / 0 / 0; Sys 0 / 0 / 0.
UGUACGUCCG (pool 0.222) read IR 0.0521 / 0.108 / 0.0553; LM 0 / 0 / 0; Sys 0 / 0 / 0.
UUGGCGGCUG (pool 0.392) read IR 0.156 / 0.0898 / 0.111; LM 0 / 0 / 0; Sys 0 / 0 / 0.
AAGGCGCGAG (pool 0.0131) read IR 0 / 0 / 0; LM 0 / 0 / 0; Sys 0 / 0 / 0.
UCCUCGAGGG (pool 0.248) read IR 0.243 / 0.0180 / 0.0553; LM 0.0276 / 0 / 0; Sys 0 / 0 / 0.
UUUACGUUAG (pool 0.235) read IR 0.139 / 0.126 / 0.166; LM 0 / 0 / 0.0464; Sys 0 / 0 / 0.
CUUCCGAUUG (pool 0.0131) read IR 0 / 0 / 0; LM 0 / 0 / 0; Sys 0 / 0 / 0.
UCCGCGUCUG (pool 0.261) read IR 0.139 / 0.0898 / 0.0553; LM 0.0276 / 0.0252 / 0; Sys 0 / 0 / 0.
UUUACGCCGG (pool 0.170) read IR 0.0348 / 0.108 / 0.0184; LM 0 / 0 / 0.0232; Sys 0 / 0 / 0.
UCCUCGUUGG (pool 0.261) read IR 0.122 / 0.108 / 0.0922; LM 0 / 0 / 0; Sys 0 / 0 / 0.
CGACCGGUCG (pool 0.0131) read IR 0 / 0.0180 / 0.0369; LM 0 / 0 / 0; Sys 0 / 0 / 0.
UUCUCGCGGG (pool 0.248) read IR 0.122 / 0.126 / 0.129; LM 0 / 0 / 0.0232; Sys 0 / 0 / 0.
UUGCCGAGAG (pool 0.340) read IR 0.851 / 0.557 / 0.719; LM 0.138 / 0.177 / 0.162; Sys 0 / 0 / 0.0205.
UAAUCGACGG (pool 0.327) read IR 0.0521 / 0.0719 / 0.0922; LM 0 / 0 / 0; Sys 0 / 0 / 0.
UCUGCGAUGG (pool 0.275) read IR 0.122 / 0.0359 / 0.0738; LM 0 / 0 / 0.0232; Sys 0 / 0 / 0.
UUUACGGCGG (pool 0.314) read IR 0.104 / 0.198 / 0.129; LM 0.0276 / 0 / 0; Sys 0 / 0.0404 / 0.
UGGCCGCGUG (pool 0.196) read IR 0.712 / 0.862 / 0.867; LM 0.110 / 0.151 / 0.209; Sys 0 / 0 / 0.0205.
UACCCGCGGG (pool 0.157) read IR 0.104 / 0.0180 / 0.111; LM 0 / 0 / 0; Sys 0 / 0 / 0.
UGGACGGGAG (pool 0.196) read IR 0.556 / 0.593 / 0.756; LM 0.248 / 0.227 / 0.139; Sys 0.0359 / 0.141 / 0.0820.

The first 4 entries again:

sequence,pool,IR,LM,Sys
UCACCGAAAG,0.222,0.643 / 0.719 / 0.350,0.0828 / 0.177 / 0.0696,0 / 0 / 0
UAGUCGGCCG,0.157,0.139 / 0.0539 / 0.0369,0.0276 / 0 / 0,0 / 0 / 0
UUGGCGUUAG,0.654,0.139 / 0.144 / 0.0922,0 / 0 / 0,0 / 0 / 0
UACCCGUGAG,0.157,0.104 / 0.108 / 0.0738,0 / 0 / 0.0232,0 / 0 / 0

Wild type was 20.7 per thousand in the pool and the most common sequence in every sample (inoculated region 195, 198, 203; leaf margin 629, 591, 734; systemic leaves 942, 870, 868).
Samples held 36,220 to 57,551 reads, so the smallest values rest on one or two reads.
Sequences that differ at fixed positions probably stem from PCR or sequencing errors, and defective variants can be carried along by functional ones.